The values below come from patent US20060115837A1 (WASHINGTON UNIVERSITY, published 2006).

The target of this experiment is West Nile Virus envelope protein on WNV virions (West Nile Virus) (UniProt Q9Q6P4). Description: cell-based or functional assay.

As for monoclonal antibody E60, the antibody-dependent enhancement of WNV infection of J774.2 murine macrophages (virus yield by plaque assay), 50 µg/ml mAb was determined as 3000 fold.
